Results of unrelated studies side by side (data: NIAID ChemDB).

All rows: growth or infection tests; species: HIV-1; cells: MT-4; read-out: EC50

An empty or dashed field is not shown. Lines come from different laboratories, so protocols vary. ECn: concentration that inhibits the pathogen or its effect by n%.

structure	strain or isolate	mutations	method	conditions	result
O=C1CN=C(c2ccc[nH]2)c2cc(Cl)ccc2N1	IIIB/LAI		cytopathic effect / MTT		>1 µM
Cc1cn([C@]2(c3ccccc3)C[C@@H]2COCP(=O)(OC(C)C)OC(C)C)c(=O)[nH]c1=O			cytopathic effect		>100 µM
COC(=O)[C@@H](C)NC(=O)c1c(C)cc2c(c1O)-c1c(cc3c(c1O)C(=O)c1cc(OC)cc(O)c1C3=O)[C@H](O)[C@H]2O[C@@H]1O[C@H](C)[C@H](N)[C@H](O[C@@H]2OC[C@@H](O)[C@H](O)[C@H]2O)[C@H]1O	IIIB		antigen		>30 µg/mL
CC(c1nc(C(=O)NCc2ccc(F)cc2)c(O)c(=O)[nH]1)N(C)C			p24	10% FBS	<0.125 µM
c1cc(CN2CCCNCCNCCCNCC2)ccc1CN1CCCNCCNCCCNCC1	T20R/C34R (subtype B)		MTT		0.001 µg/mL
Nc1ccn([C@]2(c3ccccc3)C[C@@H]2CO)c(=O)n1			cytopathic effect		>100 µM
O=c1[nH]cnc2c1ncn2[C@H]1C=C[C@@H](CO)C1	IIIB		cytopathic effect / propidium iodide		>200 µM
Cc1cn([C@H]2C=C[C@@H](COC(=O)CNC(=O)CCC(=O)N3CCN(CCNC(=S)Nc4ccc(Br)cn4)CC3)O2)c(=O)[nH]c1=O	IIIB		RT activity		0.49 µM
Cc1n[nH]c(=O)n1Cc1ccc(Br)c(Oc2cc(Cl)cc(C#N)c2)c1F		Wild type	MTT		0.011 µM
O=C(NCc1ccc(F)cc1)c1nc(Cc2ccccc2)[nH]c(=O)c1O			p24	10% FBS	<5.8 µM
CC(C)(C)NC(=O)[C@@H]1C[C@@H]2CCCC[C@@H]2CN1C[C@@H](O)[C@H](Cc1ccccc1)NC(=O)[C@@H](NC(=O)c1cnc2ccccc2n1)[C@H]1CCOC1	IIIB		p24		<0.012 µM
CN(c1nc(N)nc2c1ncn2[C@H]1C=C[C@@H](CO)C1)C1CC1	IIIB		cytopathic effect / propidium iodide		9 µM
CC(C)=CCN1c2cc(Cl)cc3[nH]c(=S)n(c23)C[C@@H]1C		RT-D67N K70R T215Y K219Q K103N			<0.8 µM
Cc1cn(Cc2ccc(Br)c(Oc3cc(Cl)cc(C#N)c3)c2F)c(=O)[nH]c1=O	K103N/Y181C	NNRTI-resistant (RT K103N/Y181C)	MTT		0.011 µM
Nc1ncnc2c1ncn2[C@H]1C=C[C@@H](CO)C1	IIIB		cytopathic effect / propidium iodide		12 µM
COc1cc(O)c2c(c1)C(=O)c1c(cc3c(c1O)-c1c(cc(C)c(C(=O)N[C@H](C)C(=O)O)c1O)[C@H](O[C@@H]1O[C@H](C)[C@H](O)[C@H](O)[C@H]1O)[C@H]3O)C2=O	IIIB		antigen		>30 µg/mL
O=C(CCC(=O)N1CCN(CCNC(=S)Nc2ccc(Br)cn2)CC1)NCC(=O)OCC#Cc1cn([C@H]2CC[C@@H](CO)O2)c(=O)[nH]c1=O	IIIB		RT activity		>10 µM
CN1C(=O)NC(=O)C1Cc1ccc(Br)c(Oc2cc(Cl)cc(C#N)c2)c1F	K103N/Y181C	NNRTI-resistant (RT K103N/Y181C)	MTT		0.011 µM
COc1cc(O)c2c(c1)C(=O)c1c(cc3c(c1O)-c1c(cc(C)c(C(=O)N[C@H](C)C(=O)O)c1O)[C@H](O[C@@H]1O[C@H](C)[C@H](O)[C@H](O[C@@H]4OC[C@@H](O)[C@H](O)[C@H]4O)[C@H]1O)[C@H]3O)C2=O	IIIB		antigen		<10 µg/mL
N#C[C@]1(CO)O[C@@H](n2cnc3c(N)ncnc32)C[C@@H]1O	IIIB		cytopathic effect / MTT		0.051 µM
Cc1cc(/C=C/C#N)cc(C)c1Oc1ccnc(S(=O)(=O)CC(=O)Nc2ccc(F)cc2)n1		L100I	MTT		0.033 µM
N#Cc1cc(Cl)cc(Oc2c(Br)ccc(Cn3c(=O)[nH]c4ncccc43)c2F)c1	K103N/Y181C	NNRTI-resistant (RT K103N/Y181C)	MTT		0.02 µM
CC(C)Nc1nc(N)nc2c1ncn2[C@H]1C=C[C@@H](CO)C1	IIIB		cytopathic effect / propidium iodide		52 µM
COc1cc(O)c2c(c1)C(=O)c1c(cc3c(c1O)-c1c(cc(C)c(C(=O)N[C@H](C)C(=O)O)c1O)[C@H](O[C@@H]1O[C@H](C)[C@H](N)[C@H](O[C@@H]4OC[C@@H](O)[C@H](O)[C@@H]4O)[C@H]1O)[C@H]3O)C2=O	IIIB		antigen		<10 µg/mL
CN(C)c1ncc(C(=O)N[C@H](C(=O)N[C@@H](Cc2ccccc2)[C@H](O)CN2C[C@H]3CCCC[C@H]3C[C@H]2C(=O)NC(C)(C)C)[C@H]2CCOC2)nc1Cl	IIIB		p24		<0.012 µM
Nc1nc(N)c2ncn([C@H]3C=C[C@@H](CO)C3)c2n1	IIIB		cytopathic effect / propidium iodide		10 µM
CC(C)(C)NC(=O)[C@@H]1C[C@@H]2CCCC[C@@H]2CN1C[C@@H](O)[C@H](Cc1ccccc1)NC(=O)[C@@H](NC(=O)c1ccc2ccccc2n1)[C@H]1CCOC1	IIIB		p24		<0.008 µM
O=C(CCC(=O)N1CCN(CCNC(=S)Nc2ccc(Br)cn2)CC1)NCC(=O)OC[C@@H]1CC[C@H](n2ccc(=O)[nH]c2=O)O1	IIIB		RT activity		>100 µM
Cn1cc(Cc2ccc(Br)c(Oc3cc(Cl)cc(C#N)c3)c2F)c(=O)[nH]c1=O	K103N/Y181C	NNRTI-resistant (RT K103N/Y181C)	MTT		0.066 µM
O=c1ccn([C@]2(c3ccccc3)C[C@@H]2COCP(=O)(O)O)c(=O)[nH]1			cytopathic effect		>100 µM
NC(=O)c1ncn([C@@H]2O[C@H](CO)[C@@H](O)[C@H]2O)n1	IIIB MKC-442-resistant (RT Y181C)	RT-Y181C	cytopathic effect / MTT		>3.3 µM
N#Cc1cc(Cl)cc(Oc2c(Br)ccc(Cn3cc(Cl)c(=O)[nH]c3=O)c2F)c1		Wild type	MTT		0.002 µM
O=c1[nH]cnc2c1ncn2[C@H]1CC[C@@H](CO)O1	IIIB		cytopathic effect		13.3 µM
Cc1cn([C@H]2C[C@H](N=[N+]=[N-])[C@@H](CO)O2)c(=O)[nH]c1=O	Y188L (subtype B)		MTT		0.0007 µg/mL
Nc1nc2c(ncn2[C@H]2C=C[C@@H](CO)C2)c(=O)[nH]1	IIIB		cytopathic effect / propidium iodide		4.6 µM
CN1CCOCC1c1nc(C(=O)NCc2ccc(F)cc2)c(O)c(=O)[nH]1			p24	50% human serum	<0.24 µM
N#Cc1cc(Cl)cc(Oc2c(Br)ccc(Cn3c(=O)[nH]c4nnccc43)c2F)c1	K103N/Y181C	NNRTI-resistant (RT K103N/Y181C)	MTT		0.038 µM
CC(C)[C@H](NC(=O)c1cc(=O)c2ccccc2o1)C(=O)N[C@@H](Cc1ccccc1)[C@H](O)CN1C[C@H]2CCCC[C@H]2C[C@H]1C(=O)NC(C)(C)C	IIIB		p24		<0.025 µM

For reference, 3 entries again:

structure	strain or isolate	mutations	method	conditions	result
CN1CCOCC1c1nc(C(=O)NCc2ccc(F)cc2)c(O)c(=O)[nH]1			p24	50% human serum	<0.24 µM
Cc1cn([C@H]2C[C@H](N=[N+]=[N-])[C@@H](CO)O2)c(=O)[nH]c1=O	Y188L (subtype B)		MTT		0.0007 µg/mL
COc1cc(O)c2c(c1)C(=O)c1c(cc3c(c1O)-c1c(cc(C)c(C(=O)N[C@H](C)C(=O)O)c1O)[C@H](O[C@@H]1O[C@H](C)[C@H](N)[C@H](O[C@@H]4OC[C@@H](O)[C@H](O)[C@@H]4O)[C@H]1O)[C@H]3O)C2=O	IIIB		antigen		<10 µg/mL